Mutational tolerance of the Zika virus NS2B-NS3 protease

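Libraries of single mutants were passaged as virus pools on Huh-7.5 cells. Deep sequencing gave the change in frequency of each mutant relative to wild type, averaged over three replicate libraries (two for positions 207-308).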

Chain scanned (Zika virus MR766; NS2B from position 2 to 131, then the start of NS3):
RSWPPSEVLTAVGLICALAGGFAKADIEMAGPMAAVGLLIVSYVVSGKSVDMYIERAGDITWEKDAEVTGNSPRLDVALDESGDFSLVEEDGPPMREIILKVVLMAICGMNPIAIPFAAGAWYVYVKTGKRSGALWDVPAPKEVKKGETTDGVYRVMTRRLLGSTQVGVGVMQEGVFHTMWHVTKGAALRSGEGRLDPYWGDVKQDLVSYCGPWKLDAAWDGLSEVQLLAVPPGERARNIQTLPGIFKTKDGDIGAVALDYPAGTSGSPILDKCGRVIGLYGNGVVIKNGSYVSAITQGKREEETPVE

Values are log2 effects on growth: 0 is wild type, lower means poorer growth.
Rows are sites, columns the new residue; wt marks the wild-type residue.

site | G | A | V | L | I | M | F | W | Y | C | P | S | T | N | Q | D | E | K | R | H | *
D65 | -1.88 | -5.98 | -6.87 | -7.70 | -5.77 | -6.02 | -3.66 | -5.70 | -4.74 | -3.00 | -7.39 | -6.67 | -5.89 | -1.87 | -5.99 | wt | -3.07 | -5.96 | -7.55 | -4.51 | -7.50
A66 | -7.56 | wt | -2.33 | -7.85 | -6.11 | -6.35 | -6.32 | -6.28 | -6.02 | -0.20 | -7.25 | -5.82 | -6.74 | -6.15 | -6.44 | -6.08 | -7.02 | -6.02 | -7.64 | -6.22 | -7.57
E67 | -5.24 | -5.54 | -1.55 | -0.53 | -1.60 | -2.54 | -4.48 | -5.39 | -4.95 | -3.83 | 0.03 | -5.45 | -3.13 | -5.81 | -2.29 | -3.13 | wt | -4.56 | -7.12 | -5.32 | -4.68
V68 | -7.28 | -4.08 | wt | -6.61 | -1.58 | -5.31 | -2.91 | -6.09 | -5.75 | -2.93 | -6.82 | -7.48 | -4.24 | -5.95 | -5.90 | -6.06 | -5.85 | -6.11 | -5.75 | -5.87 | -7.30
T69 | -2.85 | -4.18 | -7.10 | -7.18 | -6.37 | -5.76 | -6.35 | -6.39 | -6.20 | -4.86 | -7.63 | -0.01 | wt | -5.29 | -6.50 | -5.84 | -5.99 | -5.98 | -7.45 | -6.61 | -7.82
G70 | wt | -7.14 | -4.54 | -7.51 | -5.89 | -5.94 | -6.22 | -6.38 | -6.30 | -6.12 | -6.55 | -7.54 | -6.78 | -6.07 | -5.96 | -6.33 | -5.75 | -5.63 | -5.76 | -5.97 | -3.97
N71 | -2.31 | -2.60 | -3.61 | -6.57 | -2.88 | -5.70 | -6.05 | -3.68 | -5.51 | -2.81 | -6.68 | -0.62 | 0.72 | wt | -5.69 | -5.63 | -5.63 | -6.77 | -6.93 | -5.26 | -7.53
S72 | -7.73 | -1.45 | -6.85 | -7.28 | -5.41 | -5.95 | -6.01 | -6.50 | -5.94 | -3.66 | -6.38 | wt | -6.76 | -5.75 | -5.57 | -6.03 | -5.41 | -5.51 | -7.24 | -5.84 | -7.38
P73 | -6.85 | -7.13 | -1.50 | -3.30 | -2.89 | -3.53 | -3.40 | -5.36 | 0.17 | -6.05 | wt | -7.85 | -4.25 | -6.29 | -5.98 | -5.99 | -5.27 | -5.67 | -7.60 | -3.64 | -6.89
R74 | -7.51 | -3.01 | -0.96 | -1.21 | -3.19 | -0.62 | -5.60 | -6.69 | -5.61 | 0.41 | -7.47 | -1.05 | -0.40 | -1.37 | -1.00 | -5.44 | -5.34 | -0.72 | wt | 0.25 | -7.90
L75 | -7.65 | -7.49 | -1.27 | wt | -0.07 | -6.79 | -4.67 | -6.66 | -6.94 | -6.50 | -5.93 | -8.08 | -7.55 | -6.85 | -7.35 | -6.48 | -5.98 | -6.50 | -8.04 | -7.50 | -7.97
D76 | -7.69 | -0.03 | -0.76 | -0.22 | -1.39 | -1.08 | -0.48 | -0.37 | -0.85 | 0.15 | -6.25 | -0.18 | -0.45 | -0.50 | -0.55 | wt | 0.47 | -1.43 | -0.87 | 0.08 | -7.61
V77 | -7.59 | -6.96 | wt | -5.74 | -6.16 | -6.62 | -6.36 | -6.33 | -6.38 | -5.85 | -7.44 | -7.76 | -7.44 | -6.20 | -6.00 | -6.03 | -6.57 | -6.43 | -7.68 | -6.23 | -8.13

34 of these entries, quoted again:

substitution	log2 growth effect
S72M	-5.95
P73Y	0.17
E67M	-2.54
D65*	-7.50
E67Q	-2.29
L75C	-6.50
G70M	-5.94
V77D	-6.03
R74P	-7.47
P73W	-5.36
P73N	-6.29
G70T	-6.78
A66I	-6.11
G70W	-6.38
P73D	-5.99
V77R	-7.68
E67Y	-4.95
V68C	-2.93
L75R	-8.04
V77Y	-6.38
P73F	-3.40
N71Q	-5.69
P73M	-3.53
D76K	-1.43
D65K	-5.96
A66K	-6.02
T69S	-0.01
S72E	-5.41
V68R	-5.75
A66G	-7.56
R74G	-7.51
D76F	-0.48
P73L	-3.30
S72T	-6.76

Stop codons (*) centre on -7 and mark the level of dead virus.
The region was split into three libraries (1-103, 104-206, 207-308).
The authors count -1 or higher as tolerated. Position 1 is the last residue of NS2A.
Six mutants with high scores were retested singly and none clearly outgrew wild type, so positive values are not proof of better growth.

Source: Ni et al. 2025 (doi:10.1038/s41467-025-63602-z), supplementary data.